HIV-1 NL4-3 point mutations in RT: replication capacity

From the data files of Al-Mawsawi et al. 2014, doi:10.1186/s12977-014-0124-6.

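Seven fragments of pNL4-3 were mutated by error-prone PCR, and each virus pool was passaged in CEM T cells. The RC index is the frequency of a change after passage round 2 divided by its frequency in the plasmid library.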

Protein: RT of HIV-1 NL4-3, numbered from its first residue.
Effects on overlapping genes or RNA elements are not listed.

RC index: lower means poorer replication; rough cut-offs are 0.1 (lethal) and 0.2 (tolerated).
Each entry names the wild-type residue, its position and the residue put in its place.
Clones carried about five changes per kilobase, which can drag down the index of neutral changes.

For S322P (base T3513C) the result was 0.130.
For R125K (base G2923A) the result was 0.0419.
For Y188H (base T3111C) the result was 0.0812.
For L264S (base T3340C) the result was 0.0295.
For V293L (base G3426C) the result was 0.0393.
For T200S (base A3147T) the result was 0.114.
For P9L (base C2575T) the result was 0.0442.
For G213E (base G3187A) the result was 0.658.
For N545Y (base A4182T) the result was 0.0662.
For L391V (base T3720G) the result was 0.0590.
For T397S (base A3738T) the result was 0.0416.
For A129V (base C2935T) the result was 0.0675.
For E138K (base G2961A) the result was 0.141.
For E399G (base A3745G) the result was 0.0384.
For K66N (base A2747T) the result was 0.0260.
For W24R (base T2619A) the result was 0.0554.
For I31M (base A2642G) the result was 0.0564.
For F171L (base T3060C) the result was 0.0736.
For W406R (base T3765C) the result was 0.0402.
For E204K (base G3159A) the result was 0.679.
For T27S (base A2628T) the result was 0.0516.
For D121N (base G2910A) the result was 0.465.
For I542F (base A4173T) the result was 0.0325.
For P236L (base C3256T) the result was 0.129.
For W414R (base T3789A) the result was 0.0551.
For N57I (base A2719T) the result was 0.0156.
For I270F (base A3357T) the result was 0.0149.
For F227L (base C3230A) the result was 0.161.
For D511G (base A4081G) the result was 0.0440.
For C280R (base T3387C) the result was 0.0168.
For A158S (base G3021T) the result was 0.0973.
For Y318F (base A3502T) the result was 0.0223.
For L209M (base C3174A) the result was 0.0598.
For E302D (base A3455T) the result was 0.0108.
For D498N (base G4041A) the result was 0.155.
For W337R (base T3558A) the result was 0.0490.
For V35E (base T2653A) the result was 0.0414.
For K353M (base A3607T) the result was 0.0353.
For V60A (base T2728C) the result was 0.0647.
For C162F (base G3034T) the result was 0.294.
For A445G (base C3883G) the result was 0.0702.
For V118A (base T2902C) the result was 0.0459.

Base changes are numbered along pNL4-3.
The authors read an index above 1 as above wild type (1.9% of all changes in the genome).